Experiment [1] relates to Plasmodium falciparum 3D7. As to the kind of experiment: SYBR Green assay, Plasmodium falciparum strain 3D7. Conditions: read-out: Pf EC50 strain 3D7, P. falciparum strain 3D7, 96 h incubation.
The target of experiment [2] is Plasmodium vivax (Pv) NMT (Plasmodium vivax (strain Salvador I), UniProt A5K1A2). Conditions: read-out: PvNMT IC50.

Protein sequences, listed by entry. Tags and fused reporters are not part of them. Residues count along the entry.
UniProt A5K1A2, 1-410: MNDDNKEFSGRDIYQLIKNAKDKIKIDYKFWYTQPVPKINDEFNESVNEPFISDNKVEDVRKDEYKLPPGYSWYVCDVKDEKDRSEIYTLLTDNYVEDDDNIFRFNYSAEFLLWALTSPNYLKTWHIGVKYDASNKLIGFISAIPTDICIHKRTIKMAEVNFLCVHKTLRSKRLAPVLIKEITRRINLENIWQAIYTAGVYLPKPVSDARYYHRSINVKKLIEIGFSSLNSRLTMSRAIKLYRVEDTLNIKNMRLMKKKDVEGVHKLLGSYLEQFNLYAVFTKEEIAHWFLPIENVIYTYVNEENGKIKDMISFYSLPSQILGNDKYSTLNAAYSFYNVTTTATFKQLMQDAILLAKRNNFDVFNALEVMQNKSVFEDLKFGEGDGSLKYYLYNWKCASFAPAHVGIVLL

The structures appear in SMILES notation.

One may read the EC50 as the concentration giving half of the maximal effect. One may read the IC50 as the concentration needed to halve the response being measured. Turning to `C[C@@H]1CN(c2ncc(F)c(N3CC(C(=O)NC(C)(C)c4cnc5ccccn45)C3)n2)CCN1`, in experiment [1], the EC50 was 0.025 µM. For the same molecule, the 50% inhibitory concentration (IC50) in experiment [2] worked out at 0.0083 µM.

For the molecule `CN1CCN(c2ncc(Cl)c(N3CC(C(=O)NC(C)(C)c4cnc5ccccn45)C3)n2)CC1CF` (stereo not shown), the half-maximal effective concentration (EC50) in experiment [1] is 0.16 µM. Besides, the concentration for half-maximal inhibition (IC50) in experiment [2] is 0.012 µM.
